Results of unrelated studies side by side (data: NIAID ChemDB).

Common to all: whole-cell or culture tests; agent: Influenza A virus; read-out: EC50

Blank or dashed fields: not listed here. Conditions beyond the fields shown may differ between rows. ECn is the concentration giving n% inhibition of infection, replication or growth. Two numbers with a dash give a range or band.

Nc1nc(NCC2(CO)CCC2)cc(=O)[nH]1 ; strain or isolate: H1N1 A/PR/8/34 ; cell line: MDCK ; read by: plaque count ; value: >130 µM
CC(=O)N[C@H]1[C@H]([C@H](O)[C@H](O)CO)OC(C(=O)O)=C[C@@H]1N=C(N)N ; strain or isolate: H1N1 A/PR/8/34 ; cell line: MDCK ; read by: visual reading ; value: 0.3 µM
Nc1nc(Cl)c(N)c(NCC2(CO)CCC2)n1 ; strain or isolate: H1N1 A/PR/8/34 ; cell line: MDCK ; read by: plaque count ; value: 35–43 µM
C[C@H]1CC[C@H]2C(C)(C)[C@@H](O)CC[C@]23Oc2c(c(OCC(=O)O)cc4c2CNC4=O)C[C@]13C ; strain or isolate: H1N1 A/WSN/33 ; cell line: MDBK ; value: 7 µM
CC(N)C12CC3CC(CC(C3)C1)C2 ; strain or isolate: H3N2 A/NY/83/R6 ; cell line: VERO ; read by: ELISA ; value: 21.5 µg/mL
CCC(CC)[C@H](NC(C)=O)[C@@H]1C[C@@H](C(=O)O)C[C@H]1N=C(N)N ; strain or isolate: Influenza A/Victoria/3/75 (H3N2) ; cell line: MDCK ; value: 0.06 µM
O=c1ccn([C@@H]2O[C@H](CO)[C@@H](O)[C@H]2F)c(=O)[nH]1 ; strain or isolate: Recombinant A/X31 ; cell line: CEF ; read by: virus yield ; value: >20 µM
Nc1nc(Cl)cc(NCC2(CO)CC(c3ccccc3)C2)n1 ; strain or isolate: H1N1 A/PR/8/34 ; cell line: MDCK ; read by: plaque count ; value: 3.5–6 µM
CC(=O)N[C@H]1[C@H]([C@H](O)[C@H](O)CO)OC(C(=O)O)=C[C@@H]1N=C(N)N ; strain or isolate: Influenza A/Shandong/09/93 (H3N2) ; cell line: MDCK ; value: 0.5 µM
CC(C)C1CC(CO)(CNc2cc(Cl)nc(N)n2)C1 ; strain or isolate: H1N1 A/PR/8/34 ; cell line: MDCK ; read by: plaque count ; value: 2.1–9.8 µM
C[C@H]1CC[C@H]2C(C)(C)[C@@H](O)CC[C@]23Oc2c(c(OCc4ccccc4)cc4c2CNC4=O)C[C@]13C ; strain or isolate: H1N1 A/WSN/33 ; cell line: MDBK ; value: 0.51 µM
CCC ; strain or isolate: victoria/3/75 (H3) ; cell line: MDCK ; value: >500 µM
Nc1nc(Cl)cc(NCC2(CO)CC(CCc3ccccc3)C2)n1 ; strain or isolate: H1N1 A/PR/8/34 ; cell line: MDCK ; read by: plaque count ; value: 0.29–1.2 µM
CCCC(CCC)C(NC(C)=O)C1CC(C(=O)O)CC1N=C(N)N ; strain or isolate: H1N1 A/Beijing/252/95 ; cell line: MDCK ; value: 0.37 µM
Nc1nc(N)c(N)c(Cl)n1 ; strain or isolate: H1N1 A/PR/8/34 ; cell line: MDCK ; read by: plaque count ; value: >630 µM
C/C=C\[C@@H]1C[C@H](C(=O)O)N[C@H]1[C@@H](NC(C)=O)[C@](C)(CCC)OC ; strain or isolate: H1N1 isolate C31C ; cell line: MDCK ; read by: plaque count ; value: ≤0.02 µg/mL
Nc1nc2c(ncn2[C@@H]2O[C@H](CO)[C@@H](O)[C@H]2F)c(=O)[nH]1 ; strain or isolate: H3N2 A/HONG KONG/1/68 ; cell line: CEF ; read by: plaque count ; value: 0.2 µM
C[C@H]1CC[C@H]2C(C)(C)C(=O)CC[C@]23Oc2c(c(O)cc4c2CNC4=O)C[C@]13C ; strain or isolate: H1N1 A/WSN/33 ; cell line: MDBK ; value: 0.006 µM
Nc1nc(Cl)cc(NCC2(CO)CCCCC2)n1 ; strain or isolate: H1N1 A/PR/8/34 ; cell line: MDCK ; read by: plaque count ; value: 110 µM
CCCOc1nc2c(nc(N)n2[C@@H]2O[C@H](CO)[C@@H](O)[C@H]2F)c(=O)[nH]1 ; strain or isolate: Recombinant A/X31 ; cell line: CEF ; read by: virus yield ; value: 1.3 µM
C[C@H]1CC[C@H]2C(C)(C)[C@@H](O)CC[C@]23Oc2c(c(O)cc4c2CNC4=O)C[C@]13C ; strain or isolate: H1N1 A/WSN/33 ; cell line: MDBK ; value: 0.003 µM
Nc1ncnc2c1ncn2[C@@H]1O[C@H](CO)[C@@H](O)[C@H]1F ; strain or isolate: Recombinant A/X31 ; cell line: CEF ; read by: virus yield ; value: 1.8 µM
Nc1nc(Cl)cc(NCC2(CO)CC(=O)C2)n1 ; strain or isolate: H1N1 A/PR/8/34 ; cell line: MDCK ; read by: plaque count ; value: >120 µM
COc1cc2c(c3c1C[C@]1(C)[C@@H](C)CC[C@H]4C(C)(C)[C@@H](OC(C)=O)CC[C@]41O3)CNC2=O ; strain or isolate: H1N1 A/WSN/33 ; cell line: MDBK ; value: >23 µM

The last 2 rows once more:

structure	strain or isolate	cell line	read by	value
Nc1nc(Cl)cc(NCC2(CO)CC(=O)C2)n1	H1N1 A/PR/8/34	MDCK	plaque count	>120 µM
COc1cc2c(c3c1C[C@]1(C)[C@@H](C)CC[C@H]4C(C)(C)[C@@H](OC(C)=O)CC[C@]41O3)CNC2=O	H1N1 A/WSN/33	MDBK	-	>23 µM